# Source: patent US20220145343A1 (priority 2019, published 2022)
# Where two headings read alike, the source gives them in different places. Marks after values point to notes of the source that are not given here.
# Key:
# [1] = test system: α2-6-sialyltransferase activity of NmSiaDW; details: acceptor G4
# [2] = test system: NmCSS and PmAldolase; details: step 1 in the presence of NmCSS (0.75 mg/mL) and PmAldolase (2 mg/mL) for 10 h
# [3] = test system: α2-6-sialyltransferase activity of NmSiaDW; details: galactoside as acceptor, CMP-Neu5Ac as donor
# [4] = test system: α1-4-galactosyltransferase activity of NmSiaDW; details: UDP-Gal as donor; for Product: sialoside as acceptor
Molecule,Product [3],Product [4],also measured
[N-]=[N+]=NC[C@@H](O)[C@@H](N=[N+]=[N-])[C@H](O)[C@@H](C=O)N=[N+]=[N-],–,–,"Percentage conversion (%) Transferase Reaction ([1]; 13 μg/mL NmSiaDW, 10 min): 0%; Percentage conversion (%) Transferase Reaction ([1]; 0.78 mg/mL NmSiaDW, 10 h): 0%; Percentage conversion (%) CMP-Sialic acid [2]: 81 ± 1 ^b %"
[N-]=[N+]=N[C@@H]([C@H](O)[C@@H](C=O)N=[N+]=[N-])[C@H](O)CO,–,–,"Percentage conversion (%) Transferase Reaction ([1]; 13 μg/mL NmSiaDW, 10 min): 0%; Percentage conversion (%) Transferase Reaction ([1]; 0.78 mg/mL NmSiaDW, 10 h): 0%; Percentage conversion (%) CMP-Sialic acid [2]: 53 ± 4 ^b %"
Galα1-4Neu5Acα2-6GalβpNP,√,–,–
Galβ1-4Glcβ2AA,√,–,–
Galβ1-4GlcβMU,√,–,–
GalβProN3,√,–,–
Neu5Ac9NAcα2-6GalβProN3,–,√,–
Neu5Ac9NAcα2-6GalβpNP,–,√,–
Neu5Acα2-6Galβ1-4βProN3,–,√,–
Neu5AcαOMe,–,√,acceptor substrate suitability in words [4]: suitable acceptor substrates
